Assay results reported in article PMC9774241, “Associating Biological Activity and Predicted Structure of Antimicrobial Peptides from Amphibians and Insects” (Antibiotics, 2022).
Residues, ends and D or L forms follow the SMILES beside them. No end group written: not given here.

What was measured:
Format in all cases: cell-based
[1] = tested on: Escherichia coli ATCC 25922; details: ratio of the toxicity to the MIC; range; N/O = no observed antimicrobial activity
Method: (§1) Bacteria were grown overnight at 37 °C in Mueller-Hinton Broth (MHB; Sigma-Aldrich, St. Louis. MO, USA) in a shaking incubator and aliquoted into cryovials with a 50% glycerol solution in a 1:1 ratio. No additives were added to the MHB during the growth of bacterial isolates. Glycerol stocks were stored at −80 °C.
(§2) The antimicrobial activity of the putative AMPs was determined by a broth microdilution assay as described by the Clinical and Laboratory Standards Institute, with the published adaptations for testing of cationic peptides. Escherichia coli 25922 and Staphylococcus aureus 29213 isolates were purchased from the American Type Culture Collection (ATCC; Manassas, VA, USA). A human clinical isolate of Salmonella enterica serovar Enteritidis was provided by the BC Centre for Disease Control. Bacteria from stocks stored at −80 °C were streaked onto nonselective Columbia blood agar with 5% sheep blood (Oxoid) and incubated overnight at 37 °C. Next, 2–4 colonies were streaked onto a new agar plate to ensure uniform health of colonies used in the broth microdilution assay. Isolated colonies were suspended in MHB and the optical density was measured with a spectrophotometer to create an initial inoculum concentration of approximately 1 × 10^8 cfu/mL. The inoculum was diluted 1:250 to a final concentration of 2–8 × 10^5 cfu/mL, which was confirmed by performing a Total Viability Count (TVC). The TVC consisted of plating a 1:1000 dilution of the final inoculum on nonselective media and was also used to confirm the health and purity of the inoculum in each trial.
(§3) Lyophilized 80 µg peptide aliquots synthesized by GenScript (Piscataway, NJ, USA) were resuspended to 1.28 mg/mL with UltraPure water (Thermo Fisher Scientific, Waltham, MA, USA) and serially diluted in polypropylene 96-well microtiter plates (Greiner Bio-One #650261, Kremsmünster, Austria) from 128 down to 0.5 µg/mL. Two columns per plate were reserved for growth and sterility controls. Inoculum was added to the wells containing the peptide and the growth control. Plates were incubated for 20–24 h at 37 °C. The minimum inhibitory concentration (MIC) was determined as the lowest peptide concentration where there was no visible bacterial growth.

[2] = tested on: Salmonella enterica serovar Enteritidis (human clinical isolate); details: column headed Salmonella Enteritidis; ratio of the toxicity to the MIC; range; N/O = no observed antimicrobial activity
Method: as §1, §2, §3

[3] = tested on: Staphylococcus aureus ATCC 29213; details: column headed S. aureus ATCC 29213; ratio of the toxicity to the MIC; range; N/O = no observed antimicrobial activity
Method: as §1, §2, §3

Molecule | Selectivity Index, E. coli ATCC 25922 [1] | Selectivity Index, Salmonella Enteritidis [2] | Selectivity Index, S. aureus ATCC 29213 [3]
SWLSKSVKKLVNKKNYTRLEKLAKKKLFNE [TeRu4] | > 128 |  | 
GLISGILGAGKKVLC [OdMa9] |  | N/O | 
GILRLVTRRFRFSPTNLNRYTVARLVSGVP [BoAr6] |  |  | > 2
RKIIAVSVHKLCRVKR [BoUs1] |  |  | > 2
CC(C)C[C@H](NC(=O)CN)C(=O)N[C@@H](CC(C)C)C(=O)NCC(=O)N[C@@H](CCCCN)C(=O)N[C@H](C(=O)N[C@@H](CC(C)C)C(=O)NCC(=O)N[C@H](C(=O)NCC(=O)N[C@@H](CCCCN)C(=O)N[C@@H](CCCCN)C(=O)N[C@H](C(=O)N[C@@H](CC(C)C)C(=O)N[C@@H](CS)C(=O)NCC(=O)N[C@H](C(=O)N[C@H](C(=O)NCC(=O)N[C@@H](CCCNC(=N)N)C(=O)N[C@@H](CCC(=O)O)C(=O)N[C@@H](CCCNC(=N)N)C(=O)N[C@@H](CS)C(=O)N[C@@H](CCC(N)=O)C(=O)O)[C@@H](C)O)C(C)C)C(C)C)C(C)C)C(C)C [PeNi5] (H-GLLGKVLGVGKKVLCGVTGRERCQ-OH; N-terminus and C-terminus assumed) |  | N/O | 
GILSGLLGAGKKIVC [OdMa4] |  | N/O | 
ISIKEALEHSFFHTVPRKWCKKH [PoSn1] |  | N/O | N/O
GILRSLGWIQMPRSRRRHR [AnFl2] |  |  | > 1
CC[C@H](C)[C@H](NC(=O)CNC(=O)[C@H](CO)NC(=O)[C@@H](NC(=O)[C@H](CC(C)C)NC(=O)CN)[C@@H](C)CC)C(=O)N[C@@H](CC(C)C)C(=O)NCC(=O)N[C@@H](C)C(=O)NCC(=O)N[C@@H](CCCCN)C(=O)N[C@@H](CCCCN)C(=O)N[C@H](C(=O)N[C@@H](CC(C)C)C(=O)N[C@@H](CS)C(=O)NCC(=O)N[C@@H](CC(C)C)C(=O)N[C@@H](CO)C(=O)NCC(=O)N[C@@H](CC(C)C)C(=O)N[C@@H](CS)C(=O)O)C(C)C [OdMa10] (H-GLISGILGAGKKVLCGLSGLC-OH; N-terminus and C-terminus assumed) |  |  | N/O
GILSGLLGAGKKIVCGLSGMC [RaOm2, rAMPage-discovered AMP, Rana omeimontis] |  | N/O | N/O
RRAIFASIRGYLGLRKR [MyGu1] |  | > 1 | 
GLVGKLVKGGLKLIGHVANG [RaSi1] |  |  | N/O
TALKSLSILKKLAKLNM [PoSn2, rAMPage-discovered AMP, Polistes snelleni] |  | N/O | N/O
AFVRILCYCCPRRIKRR [TeRu2, rAMPage-discovered AMP, Temnothorax rugatulus] |  | N/O | N/O
CC[C@H](C)[C@H](NC(=O)[C@H](CO)NC(=O)[C@@H]1CCCN1C(=O)[C@H](CC(C)C)NC(=O)[C@@H](NC(=O)[C@H](CCCCN)NC(=O)[C@H](C)NC(=O)[C@H](C)NC(=O)[C@H](CC(C)C)NC(=O)CNC(=O)[C@H](C)NC(=O)[C@@H](NC(=O)[C@@H](NC(=O)[C@@H]1CCCN1C(=O)[C@H](CC(C)C)NC(=O)[C@@H](N)Cc1ccccc1)C(C)C)C(C)C)C(C)C)C(=O)N[C@H](C(=O)N[C@@H](CS)C(=O)N[C@@H](C)C(=O)N[C@H](C(=O)N[C@H](C(=O)N[C@@H](CCCCN)C(=O)N[C@@H](CCCCN)C(=O)N[C@@H](CS)C(=O)O)[C@@H](C)O)C(C)C)[C@@H](C)CC [RaCa15] (H-FLPVVAGLAAKVLPSIICAVTKKC-OH; N-terminus and C-terminus assumed) |  |  | N/O
CC[C@H](C)[C@H](NC(=O)CN)C(=O)N[C@@H](Cc1ccccc1)C(=O)NCC(=O)NCC(=O)N[C@@H](Cc1c[nH]cn1)C(=O)N[C@@H](CC(C)C)C(=O)N[C@@H](CCCCN)C(=O)N[C@H](C(=O)NCC(=O)N[C@@H](CCCCN)C(=O)N[C@@H](CCCCN)C(=O)N[C@H](C(=O)N[C@@H](C)C(=O)N[C@@H](CS)C(=O)NCC(=O)N[C@@H](CC(C)C)C(=O)N[C@@H](CO)C(=O)NCC(=O)N[C@@H](CC(C)C)C(=O)N[C@@H](CS)C(=O)O)[C@@H](C)CC)C(C)C [OdTo2] (H-GIFGGHLKVGKKIACGLSGLC-OH; N-terminus and C-terminus assumed) |  | N/O | N/O
GIFGGLLKEGKKIACGLSGLC [OdTo3, rAMPage-discovered AMP, Odorrana tormota] |  | N/O | N/O
GFMDTAKNVAKNVAVTLLDNLKCKITKAC [OdMa13, rAMPage-discovered AMP, Odorrana margaretae] |  | N/O | N/O
CC[C@H](C)[C@H](NC(=O)[C@@H](N)C(C)C)C(=O)N1CCC[C@H]1C(=O)N[C@@H](Cc1ccccc1)C(=O)N[C@H](C(=O)N[C@@H](C)C(=O)N[C@@H](CO)C(=O)N[C@H](C(=O)N[C@@H](C)C(=O)N[C@@H](C)C(=O)N[C@@H](CCC(=O)O)C(=O)N[C@@H](CCSC)C(=O)N[C@@H](CCSC)C(=O)N[C@@H](Cc1c[nH]cn1)C(=O)N[C@@H](Cc1c[nH]cn1)C(=O)N[C@H](C(=O)N[C@@H](Cc1ccc(O)cc1)C(=O)N[C@@H](CS)C(=O)N[C@@H](C)C(=O)N[C@@H](C)C(=O)N[C@@H](CO)C(=O)N[C@@H](CCCCN)C(=O)N[C@@H](CCCNC(=N)N)C(=O)N[C@@H](CS)C(=O)N[C@@H](CCCCN)C(=O)N[C@@H](CC(N)=O)C(=O)O)C(C)C)C(C)C)C(C)C [PeNi7] (H-VIPFVASVAAEMMHHVYCAASKRCKN-OH; N-terminus and C-terminus assumed) |  | N/O | N/O
CC[C@H](C)[C@H](NC(=O)[C@H](CCCCN)NC(=O)[C@H](CS)NC(=O)[C@H](Cc1ccccc1)NC(=O)[C@H](CCCCN)NC(=O)[C@H](CCCNC(=N)N)NC(=O)[C@H](CO)NC(=O)[C@H](Cc1ccc(O)cc1)NC(=O)CNC(=O)[C@H](CS)NC(=O)[C@@H]1CCCN1C(=O)[C@H](C)NC(=O)[C@@H](NC(=O)[C@H](C)NC(=O)[C@H](Cc1ccccc1)NC(=O)[C@H](Cc1ccccc1)NC(=O)[C@H](Cc1ccccc1)NC(=O)[C@H](CCCNC(=N)N)NC(=O)[C@@H](N)CCCNC(=N)N)[C@@H](C)O)C(=O)N[C@H](C(=O)N[C@@H](CCCNC(=N)N)C(=O)N[C@@H](CCCNC(=N)N)C(=O)N[C@@H](CCCCN)C(=O)N[C@@H](CCCNC(=N)N)C(=O)O)[C@@H](C)O [CaCa4] (H-RRFFFATAPCGYSRKFCKITRRKR-OH) |  | N/O | 
CC[C@H](C)[C@H](NC(=O)[C@H](CO)NC(=O)[C@@H]1CCCN1C(=O)[C@H](CC(C)C)NC(=O)[C@@H](NC(=O)[C@H](CCCCN)NC(=O)[C@H](C)NC(=O)[C@H](C)NC(=O)[C@H](CC(C)C)NC(=O)CNC(=O)[C@H](C)NC(=O)[C@@H](NC(=O)[C@@H](NC(=O)[C@@H]1CCCN1C(=O)[C@H](CC(C)C)NC(=O)[C@H](Cc1ccccc1)NC(=O)[C@H](CCCNC(=N)N)NC(=O)[C@H](CCC(N)=O)NC(=O)[C@H](CCC(=O)O)NC(=O)[C@@H](N)CCC(=O)O)C(C)C)C(C)C)C(C)C)C(=O)N[C@H](C(=O)N[C@@H](CS)C(=O)N[C@@H](C)C(=O)N[C@H](C(=O)N[C@H](C(=O)N[C@@H](CCCCN)C(=O)N[C@@H](CCCCN)C(=O)N[C@@H](CS)C(=O)O)[C@@H](C)O)C(C)C)[C@@H](C)CC [RaSy2] (H-EEQRFLPVVAGLAAKVLPSIICAVTKKC-OH; N-terminus and C-terminus assumed) |  |  | N/O
